Results of unrelated studies side by side (data: NIAID ChemDB).

Common to all: whole-cell or culture tests; species: Hepatitis B virus; measure: EC50

Conditions beyond the fields shown may differ between rows.

compound | strain | cell line | read by | result
COCCCOc1cc2c(cc1Cl)-c1c(cc(C(=O)O)c(=O)n1C1CC1)[C@H](C)S2(=O)=O |  | Primary human hepatocytes | antigen / visual reading / absorbance | 0.05–0.1 µM
Cc1nnc(C(=O)N2CCC3(COc4c(cn(C)c4C(=O)Nc4ccc(F)c(F)c4)S(=O)(=O)N3)C2)o1 | Genotype D | HepAD38 | PCR | <0.5 µM
C[C@@H]1Cc2c(n3ncc(CC4CCC4)c3n(-c3ccc(-c4nncn4C)cc3)c2=O)CN1C(=O)c1ccc(Cl)c(C(F)(F)F)c1 |  | HepG2.117 | luminescence | ≤0.05 µM
O=C(O)c1cc2c(n(C3CC3)c1=O)-c1cc(Cl)c(OC3CCOCC3)cc1S(=O)(=O)C2 |  | Primary human hepatocytes | antigen / visual reading / absorbance | 0.1–0.5 µM
C[C@@H]1Cc2c(n3ncc(CC4CCC4)c3n(-c3ccc(-c4nncn4C)cc3)c2=O)CN1C(=O)c1ccc(Br)c(C(F)(F)F)c1 |  | HepG2.117 | luminescence | ≤0.05 µM
COc1ccc(-n2c(C(=O)CNc3ccc(C(N)=O)cc3)c3n(c2=O)CCN(C(=O)c2ccc(Cl)c(Cl)c2)C3)cc1 |  | HepG2.117 | PCR | >5 µM
CCOC(=O)C1=C(CN2CC(F)(F)[C@H]3[C@@H]2CCN3C[C@@H](O)C(C)(C)C(=O)O)NC(c2nccs2)=N[C@H]1c1cccc(F)c1C |  | HepG2.2.15 | PCR | 0.001 µM
Cn1cc2c(c1C(=O)Nc1ccc(F)c(C(F)F)c1)OC[C@]1(CCN(C(=O)C(=O)NC(C)(C)C(F)(F)F)C1)NS2(=O)=O | Genotype D | HepAD38 | PCR | <0.5 µM
C[C@H]1Cc2c(n3ncc(CC4CCC4)c3n(-c3ccc(-c4nncn4C)cc3)c2=O)CN1C(=O)c1ccc(Br)c(Cl)c1 |  | HepG2.117 | luminescence | 0.05–0.5 µM
O=C(NCc1c(F)ccc2nccnc12)c1c2n(c(=O)n1-c1ccc(OC3CC3)cc1)CCN(C(=O)c1ccc(Br)c(Cl)c1)C2 |  | HepG2.117 | PCR | <0.1 µM
Cc1cc(NC(=O)c2c3c(cn2C)S(=O)(=O)N[C@H]2CN(C(=O)C(=O)NC4(C)COC4)C[C@H]2CO3)ccc1F |  | HepG2 | PCR | <0.5 µM
CC[C@H]1Cc2c(n3ncc(Cc4ccccc4)c3n(-c3ccc4c(NC)n[nH]c4c3)c2=O)CN1C(=O)c1ccc(Br)c(C(F)(F)F)c1 |  | HepG2.117 | luminescence | ≤0.05 µM
C[C@@H](NC(=O)C(=O)N1CC[C@@]2(COc3c(cn(C)c3C(=O)Nc3ccc(F)c(C(F)F)c3)S(=O)(=O)N2)C1)C(F)(F)F | Genotype D | HepAD38 | PCR | <0.5 µM
Cn1cc2c(c1C(=O)Nc1ccc(Cl)c(F)c1)OC[C@@H]1CN(C(=O)C(=O)NC3(C)COC3)C[C@@H]1NS2(=O)=O |  | HepG2 | PCR | <0.5 µM
CCOC(=O)C1=C(CN2CC(F)(F)[C@@H]3[C@H]2CON3C[C@](C)(O)C(C)(C)C(=O)O)NC(c2nccs2)=N[C@H]1c1cccc(F)c1C |  | HepG2.2.15 | PCR | 0.029 µM
CC1c2cc(C(=O)O)c(=O)n(C3CC3)c2-c2cc(Cl)c(OC3CCOCC3)cc2S1(=O)=O |  | Primary human hepatocytes | antigen / visual reading / absorbance | >0.5 µM
Cc1ccnn1-c1ccc(-n2c(=O)c3c(n4ncc(Cc5ccccc5)c24)CN(C(=O)c2ccc(Br)c(Cl)c2)CC3)cc1 |  | HepG2.117 | luminescence | ≤0.05 µM
Cc1cc(NC(=O)c2c3c(cn2C)S(=O)(=O)N[C@H]2CN(C(=O)C(=O)N[C@H](C)C(F)(F)F)C[C@H]2CO3)ccc1F | Genotype A | HepG2 | PCR | 0.00214 µM
C#CCNC(=O)C(=O)c1cn(C)c(C(=O)Nc2ccc(F)c(C#N)c2)c1C |  | HepG2.2.15 | PCR | 0.01–0.099 µM
C=C1[C@@H](n2cnc3c(N)ncnc32)[C@H](F)[C@H](O)[C@H]1CO |  | Huh7 |  | 0.548 µM
COCCCOc1cc2c(cc1Cl)-c1c(cc(C(=O)O)c(=O)n1C1CCC1)C(C)S2(=O)=O |  | Primary human hepatocytes | antigen / visual reading / absorbance | 0.1–0.5 µM
C=C1[C@H](CO)[C@@H](O)C[C@@H]1n1cnc2c(=O)[nH]c(N)nc21 | Genotype D | HepG2-NTCP | ELISA | >0.1 µM
Cc1cc(NC(=O)c2c3c(cn2C)S(=O)(=O)N[C@H]2CN(C(=O)C(=O)NC4(C)CC4)C[C@H]2CS3)ccc1F |  | HepAD38 | PCR | <0.5 µM
C[C@H](NC(=O)c1c2n(c(=O)n1-c1ccc(OCC(F)(F)F)cc1)CCN(C(=O)c1ccc(Br)c(Cl)c1)C2)c1ccc(C#N)cc1F |  | HepG2.117 | PCR | 0.5–5 µM
CCOC(=O)C1=C(CN2CC(F)(F)[C@@H]3[C@H]2CON3C[C@@H](F)C(C)(C)C(=O)O)NC(c2nccs2)=N[C@H]1c1cccc(F)c1Cl |  | HepG2.2.15 | PCR | 0.003 µM
Cc1c(C(=O)C(=O)NC2(c3cnc[nH]3)COC2)c(C)n(C)c1C(=O)Nc1ccc(F)c(C#N)c1 |  | HepG2.2.15 | PCR | 0.001–0.0099 µM
CCOC(=O)C1=C(CN2CC(F)(F)[C@@H]3[C@H]2CON3CC[C@](C)(OC)C(=O)O)NC(c2nccs2)=N[C@H]1c1cccc(F)c1C |  | HepG2.2.15 | PCR | 0.1 µM
COc1ccc([C@H](C)NC(=O)c2c3n(c(=O)n2-c2ccc(OC4CC4)cc2)C[C@H](C)N(C(=O)c2ccc(Br)c(Cl)c2)C3)cc1 |  | HepG2.117 | PCR | <0.1 µM
CNC(=O)c1ccc(-n2c(=O)c3c(n4ncc(CC(C)C)c24)CN(C(=O)c2ccc(Br)c(Cl)c2)[C@H](C)C3)cc1 |  | HepG2.117 | luminescence | ≤0.05 µM
C[C@@H](NC(=O)C(=O)N1CCC2(COc3c(c(Cl)n(C)c3C(=O)Nc3ccc(F)c(Cl)c3)S(=O)(=O)N2)C1)C(F)(F)F | Genotype D | HepAD38 | PCR | <0.5 µM
C[C@@H](Oc1ccc(CNC(=O)c2c3n(c(=O)n2-c2ccc(OC4CC4)cc2)CCN(C(=O)c2ccc(Br)c(Cl)c2)C3)c(F)c1)C(N)=O |  | HepG2.117 | PCR | 0.1–0.5 µM
C=CCNC(=O)C(=O)c1cn(C)c(C(=O)Nc2ccc(F)c(C#N)c2)c1F |  | HepG2.2.15 | PCR | 0.1–0.999 µM
Cc1ccc(-n2c(C(=O)NCc3ccccc3)c3n(c2=O)CCN(C(=O)c2ccc(Br)c(Cl)c2)C3)cc1 |  | HepG2.117 | PCR | 0.1–0.5 µM
C=C1C(COP(=O)(N[C@@H](C)C(=O)OC)Oc2ccccc2)C(O)C(F)C1n1cnc2c(N)ncnc21 |  | Huh7 |  | 0.062 µM
COCCCOc1cc2c(cc1Cl)-c1c(cc(C(=O)O)c(=O)n1C1CCCC1)C(C)S2(=O)=O |  | Primary human hepatocytes | antigen / visual reading / absorbance | >0.5 µM
CNc1n[nH]c2cc(-n3c(=O)c4c(n5ncc(CC6CC6)c35)CN(C(=O)c3ccc(Br)c(C(F)(F)F)c3)CC4)ccc12 |  | HepG2.117 | luminescence | ≤0.05 µM
COCCn1cc(COc2cc3c(cc2Cl)-c2c(cc(C(=O)O)c(=O)n2C2CC2)CS3(=O)=O)cn1 |  | Primary human hepatocytes | antigen / visual reading / absorbance | 0.05–0.1 µM
Cc1c(C(=O)C(=O)NC(C)(C)c2cccnc2)c(C)n(C)c1C(=O)Nc1ccc(F)c(C#N)c1 |  | HepG2.2.15 | PCR | 0.001–0.0099 µM
CCOC(=O)C1=C(CN2CC(F)(F)[C@H]3[C@@H]2CCN3C[C@@](C)(O)C(=O)O)NC(c2nccs2)=N[C@H]1c1cccc(F)c1F |  | HepG2.2.15 | PCR | 0.098 µM
COCCOc1cc2c(cc1Cl)-c1c(cc(C(=O)O)c(=O)n1C1CC1)CS2(=O)=O |  | Primary human hepatocytes | antigen / visual reading / absorbance | 0.1–0.5 µM
COC(=O)C1=C(CN2CC(F)(F)[C@@H]3[C@H]2CON3C[C@@](C)(O)C(C)(C)C(=O)O)NC(c2nccs2)=N[C@H]1c1ccc(F)c(F)c1C |  | HepG2.2.15 | PCR | 0.011 µM
CC1c2cc(C(=O)O)c(=O)n(C3CC3)c2-c2cc(Cl)c(O)cc2S1(=O)=O |  | Primary human hepatocytes | antigen / visual reading / absorbance | >0.5 µM

For reference, 5 entries again:

C[C@@H](NC(=O)C(=O)N1CC[C@@]2(COc3c(cn(C)c3C(=O)Nc3ccc(F)c(C(F)F)c3)S(=O)(=O)N2)C1)C(F)(F)F ; strain: Genotype D ; cell line: HepAD38 ; read by: PCR ; result: <0.5 µM
COCCCOc1cc2c(cc1Cl)-c1c(cc(C(=O)O)c(=O)n1C1CC1)[C@H](C)S2(=O)=O ; cell line: Primary human hepatocytes ; read by: antigen / visual reading / absorbance ; result: 0.05–0.1 µM
CNc1n[nH]c2cc(-n3c(=O)c4c(n5ncc(CC6CC6)c35)CN(C(=O)c3ccc(Br)c(C(F)(F)F)c3)CC4)ccc12 ; cell line: HepG2.117 ; read by: luminescence ; result: ≤0.05 µM
COCCn1cc(COc2cc3c(cc2Cl)-c2c(cc(C(=O)O)c(=O)n2C2CC2)CS3(=O)=O)cn1 ; cell line: Primary human hepatocytes ; read by: antigen / visual reading / absorbance ; result: 0.05–0.1 µM
Cc1cc(NC(=O)c2c3c(cn2C)S(=O)(=O)N[C@H]2CN(C(=O)C(=O)NC4(C)CC4)C[C@H]2CS3)ccc1F ; cell line: HepAD38 ; read by: PCR ; result: <0.5 µM

a–b is a range or a potency band. An empty or dashed field is not shown. ECn: concentration that inhibits the pathogen or its effect by n%.